Anti-infective test results gathered from many reports (values: NIAID ChemDB through PubChem).

Shared fields: tests in culture; agent: Staphylococcus aureus; endpoint: MIC

Lines come from different laboratories, so protocols vary.

compound | strain | value
Cc1c(NCCCO)c(F)cc2c(=O)c(C(=O)O)cn(-c3cc(N)c(F)cc3F)c12 | MR8736 (methicillin-resistant) | 8 µg/mL
CC[C@H]1OC(=O)[C@H](C)C(=O)[C@H](C)[C@@H](O[C@@H]2O[C@H](C)C[C@H](N(C)C)[C@H]2O)[C@@]2(C)C[C@@H](C)C(=NC(C)=O)[C@H](C)C(OC/C(=N/OCc3ccccc3)CO2)[C@]1(C)O | 33591 (erythromycin methicillin-resistant) | >64 µg/mL
Cc1c(N)c(F)cc2c(=O)c(C(=O)O)cn(-c3cc(N)c(F)cc3F)c12 | SMITH | 0.004 µg/mL
CCCCCCCCCCCC[N+](C)(C)COC(CC)CCCCC | ATCC33592 | 1.28 µM
O=C(CBr)NC[C@H]1CN(c2ccc3c(c2)-n2cccc2COC3)C(=O)O1 | ATCC 33591 (MRSA) | 4 µg/mL
O=C(CO)N1CCN(c2ccc(N3C[C@H](CNc4ccon4)OC3=O)cc2F)CC1 | 004 (methicillin quinolone-resistant) | 2 µg/mL
CCCCCCCCCCCC[N+](C)(C)COCCCCC | ATCC 6538 | 3.57 µM
O=C(NC[C@H]1CN(c2ccc3c(c2)-n2cccc2COC3)C(=O)O1)C1CC1 | ATCC 29213 (MSSA) | 8 µg/mL
CS(=O)(=O)N[C@H]1CCN(c2ccc(N3C[C@H](CNc4ccon4)OC3=O)cc2F)C1 | 078 (oxford) | 0.25 µg/mL
O=C(CC(F)(F)F)NC[C@H]1CN(c2ccc3c(c2)-n2cccc2COC3)C(=O)O1 | ATCC 49951 (SMITH) | 8 µg/mL
CCN(CC)CCCCC(C)Nc1cc2c(cc1F)c(=O)c(C(=O)O)cn2C1CC1 | ATCC 6538P | >100 µg/mL
CCCCCCCCCCCC[N+](C)(C)COCC(C)CCC | ATCC 6538 | 1.65 µM
O=C1O[C@@H](CNc2ccon2)CN1c1ccc(-n2ccnc2)c(F)c1 | 078 (oxford) | 0.13 µg/mL
CC(C)C(=S)NC[C@H]1CN(c2ccc3c(c2)-n2cccc2COC3)C(=O)O1 | ATCC 33591 (MRSA) | 4 µg/mL
CC1(C)CC(CNc2cc3c(cc2F)c(=O)c(C(=O)O)cn3C2CC2)CC(C)(C)N1 | ATCC 6538P | >100 µg/mL
CC[C@H]1OC(=O)[C@H](C)C(=O)[C@H](C)[C@@H](O[C@@H]2O[C@H](C)C[C@H](N(C)C)[C@H]2O)[C@@]2(C)C[C@@H](C)C(=NC(C)=O)[C@H](C)C(OC/C(=N\OCc3ccccc3)CO2)[C@]1(C)O | 27660 (erythromycin-resistant) | 0.25 µg/mL
CCCCCCCCCCCC[N+](C)(C)CSCCC | ATCC 6538 | 15 µM
CC(C)OCCCNc1cc2c(cc1F)c(=O)c(C(=O)O)cn2C1CC1 | ATCC 6538P | >100 µg/mL
Cc1c(NC2CC2)c(F)cc2c(=O)c(C(=O)O)cn(-c3cc(N)c(F)cc3F)c12 | W44 (methicillin-resistant) | 0.06 µg/mL
CC[C@H]1OC(=O)[C@H](C)C(=O)[C@H](C)[C@@H](O[C@@H]2O[C@H](C)C[C@H](N(C)C)[C@H]2O)[C@](C)(OC)C[C@@H](C)C(=O)[C@H](C)[C@H]2N(CCCCn3cnc(-c4cccnc4)c3)C(=O)O[C@]12C | 25923 (erythromycin-susceptible) | 0.13 µg/mL
COC(CN(C)c1cc2c(cc1F)c(=O)c(C(=O)O)cn2C1CC1)OC | ATCC 6538P | 3.12 µg/mL
O=C1O[C@@H](COc2ccon2)CN1c1ccc(-n2ccnc2)c(F)c1 | 122 (novobiocin-resistant) | 1 µg/mL
CC[C@H]1OC(=O)[C@H](C)C(=O)[C@H](C)[C@@H](O[C@@H]2O[C@H](C)C[C@H](N(C)C)[C@H]2O)[C@@]2(C)C[C@@H](C)C(=NC(C)=O)[C@H](C)[C@@H](OC/C(=N\Oc3ccc(-c4nnc(N)s4)cc3)CO2)[C@]1(C)O | 25923 (erythromycin-susceptible) | 0.13 µg/mL
NCCCNc1cc2c(cc1F)c(=O)c(C(=O)O)cn2C1CC1 | ATCC 5278 (methicillin-resistant) | >100 µg/mL
CS(=O)(=O)N[C@@H]1CCN(c2ccc(N3C[C@H](COc4ccon4)OC3=O)cc2F)C1 | 122 (novobiocin-resistant) | 1 µg/mL
CCCCCCCCCCCC[N+](C)(C)COCCCCCCCC | ATCC33592 | 0.77 µM
CNCCCCCCN(C)c1cc2c(cc1F)c(=O)c(C(=O)O)cn2C1CC1 | ATCC 6538P | 12.5 µg/mL
O=C(NC[C@H]1CN(c2ccc3c(c2)-n2cccc2COC3)C(=O)O1)OCc1ccccc1 | ATCC 33591 (MRSA) | >32 µg/mL
CC[C@H]1OC(=O)[C@H](C)C(=O)[C@H](C)[C@@H](O[C@@H]2O[C@H](C)C[C@H](N(C)C)[C@H]2O)[C@@]2(C)C[C@@H](C)C(=NC(C)=O)[C@H](C)[C@@H](OC/C(=N\OCc3ccc4nc(N)sc4c3)CO2)[C@]1(C)O | 27660 (erythromycin-resistant) | <0.06 µg/mL

For reference, 2 entries again:

compound,strain,value
CS(=O)(=O)N[C@H]1CCN(c2ccc(N3C[C@H](CNc4ccon4)OC3=O)cc2F)C1,078 (oxford),0.25 µg/mL
CC(C)C(=S)NC[C@H]1CN(c2ccc3c(c2)-n2cccc2COC3)C(=O)O1,ATCC 33591 (MRSA),4 µg/mL